We go through 1 compound from the supplement of paper PMC8497498.

Common to all, as to conditions: P. vivax isolate: Pv728; hepatocyte lot: BGW; assay mode: Radical Cure, 8-day (treatment from day 5 post-infection)
Test [1] relates to Plasmodium vivax liver stage (primary human hepatocyte culture). On the procedure:
(§1)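 Dose-response of P. vivax liver stages in primary human hepatocytes, with 8 points (10 uM-[…], v1) or 12 points in duplicate (50 uM-280 pM, v2). Read-out is high-content imaging of schizont net growth area, hypnozoite quantity and hepatic nuclei. EC50 and CC20 (20% nuclei loss) were fitted in CDD Vault from the highest-quality independent experiment; toxic-dose bell-shaped points were masked. '>' marks the highest concentration with less than 50% activity, and ND means a non-sigmoidal curve.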

The subject of test [2] is primary human hepatocytes. Description: CC20 hepatic nuclei (20% reduction); higher = less toxic. On the procedure:
as §1

The test system of test [3] is Plasmodium vivax liver stage (primary human hepatocyte culture). Description: maximum inhibition of schizont net growth area; higher = more active. On the procedure: as §1

`c1ccc2c(NCCCCCCNc3c4c(nc5ccccc35)CCCC4)c3c(nc2c1)CCCC3`: in test [1], the EC50 hypnozoite quantity was greater than 50 µM and the “EC50 schizont net growth area” value was greater than 16.7 µM. In test [2], this compound returned a CC20 hepatic nuclei of 42.1 µM. In addition, the maximum inhibition in test [3] stood at 102%.
